How the values were obtained:
[1] = tested on: Fusarium oxysporum f. sp. radicis-lycopersici (FORL); details: applied to soil at 30 ppm; 7 days at 25° C.
[2] = tested on: root-knot nematode Meloidogyne javanica; details: scale 0 (clean roots) to 4 (100% coverage of galls); three weeks after planting
[3] = tested on: Verticillium dahliae; assay: Viability of soil-borne fungi in treated soil: Verticillium dahliae; details: 7 days

Q: What does the source list for `O=[N+]([O-])C(Br)(Br)Br`?
A: density of FORL in soil [1]: < 10 cfu/g; galling index of tomato plant roots [2]: zero; Verticillium dahliae density relative to the untreated check ([3]; applied to soil at 30 ppm): under 1 % of the untreated check; LD50 (concentration reducing density in soil by half), Verticillium dahliae ([3]; dose response curve, FIG. 4): about 12 ppm

— patent publication US20070249501A1 (priority 2004, published 2007)
